Percent effect of library compounds

The values are deposited in ChEMBL (CHEMBL3988442, “University of Dundee, Small-Polar-MMV Screening Library” (2021)).

Mtb glucose medium: 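Growth of Mycobacterium tuberculosis over 3 days (7H9 medium with glucose and tyloxapol); the read-out is not stated. Tested at 500 µM. The record gives no direction; compounds that gave an IC50 in retests scored well above the rest, so higher reads as more growth inhibition. Of about 18,000 compounds tested this way, about 1,400 (7.9%) reached 50% or more in at least one test.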
Mtb cholesterol medium: 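Phenotypic screen: M. tuberculosis growth, cholesterol and DPPC medium, 4 days; the read-out is not stated. Compounds at 500 µM. Higher reads as more growth inhibition (inferred: compounds with an IC50 in retests scored well above the rest). Size under these conditions: about 18,000 compounds, about 900 of them at 50% or above in at least one test.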

Results are given as percent effect.
The controls that fix the scale are not given in the record; negative values are as filed.
The entries come from a sample that favours strong results.

SMILES: Fc1ccc2c(c1)CNCCO2
Mtb glucose medium: 28.34%
Mtb cholesterol medium: 23.42%

SMILES: CN(Cc1ccc(F)c(F)c1)C(=O)C1CCOCC1
Mtb glucose medium: 36.14%
Mtb cholesterol medium: 40.24%

SMILES: NC1Cc2ccccc21 (stereo unspecified)
Mtb glucose medium: 10.71%
Mtb cholesterol medium: -2.726%

SMILES: CC(=O)N[C@H]1CCN(CCn2c(=O)cc(C)[nH]c2=O)C1
Mtb cholesterol medium: -5.335%

SMILES: Cc1c(C(=O)Nc2ccc(F)c(C(N)=O)c2)cnn1C
Mtb cholesterol medium: 6.233%

SMILES: N[C@H]1CCCc2cc(F)ccc21
Mtb glucose medium: -338.4%

SMILES: CN(Cc1cnn(C)c1)C(=O)C1CCNCC1
Mtb glucose medium: 8.21%

SMILES: CC1(O)C(=O)Nc2ccccc21 (stereo unspecified)
Mtb cholesterol medium: -30.22%

SMILES: CN(C)[C@H]1CN(Cc2cccc(OCCO)c2)C[C@@H]1O
Mtb glucose medium: -10.54%

SMILES: Cc1nnc(SC(C)C(=O)NC2=NCCS2)s1 (stereo unspecified)
Mtb cholesterol medium: 17.11%

SMILES: CC(=O)c1ccc(C(C)(C)O)cc1
Mtb glucose medium: 4.058%

SMILES: CC(=O)NCCNCc1cc(O)c2cc(F)ccc2n1
Mtb glucose medium: 5.967%

SMILES: Cc1ccc(S(=O)(=O)CCCS(=O)(=O)N(C)C)c(C)c1
Mtb cholesterol medium: 18.78%

SMILES: O=C(NCc1c[nH]c2ncccc12)C1CCC1
Mtb glucose medium: 13.6%

SMILES: CCc1cc(C(=O)NCCS(=O)(=O)N(C)C)cs1
Mtb cholesterol medium: 34.92%

SMILES: Cc1ccc(C(=O)NC2CCN(CC(N)=O)CC2)cc1
Mtb glucose medium: 9.581%

SMILES: O=C(NCCNCc1ccccc1)c1ccco1
Mtb glucose medium: 2.669%
Mtb cholesterol medium: 1.394%

SMILES: CCNC(=O)C(C)OC(=O)c1[nH]c(C)c(C(C)=O)c1C (stereo unspecified)
Mtb glucose medium: -0.6634%
Mtb cholesterol medium: -11.67%

SMILES: CCc1ccccc1NC(=O)CN
Mtb glucose medium: -12.44%

SMILES: CC(C)(C)C(=O)CNC(=O)c1ccc[nH]1
Mtb glucose medium: 7.003%

SMILES: CN(C)CCC1CN(C(=O)C2CCCCC2)CCO1 (stereo unspecified)
Mtb glucose medium: 2.056%

SMILES: COC(=O)c1cccc(S(=O)(=O)NC(C)C(N)=O)c1 (stereo unspecified)
Mtb glucose medium: 7.746%

SMILES: CC(C)(C)CC(=O)Nc1nnc(-c2ccccn2)[nH]1
Mtb glucose medium: 22.51%

SMILES: Nc1c[nH]nc1-c1ccccn1
Mtb glucose medium: 16.81%
Mtb cholesterol medium: 22.54%

SMILES: CCC(NC(=O)c1cccn1C(C)C)[C@H]1C[C@H](O)C1 (stereo partly specified)
Mtb glucose medium: -13.79%

SMILES: CNC(=O)C1CCCN1C(=O)c1ccccc1O (stereo unspecified)
Mtb glucose medium: 14.71%

SMILES: C=C(C)CSc1nnnn1Cc1ccco1
Mtb glucose medium: 70.81%
Mtb cholesterol medium: 74.03%

SMILES: N#CCSCC(=O)NCc1ccc(Cl)s1
Mtb cholesterol medium: 5.8%

SMILES: CNC(=O)CN(C)C(=O)c1cc2ccccc2cc1O
Mtb cholesterol medium: 11.48%

SMILES: O[C@H]1C[C@@H](c2cc(NCCc3cn[nH]c3)ncn2)C1
Mtb glucose medium: 20.1%

SMILES: Cc1ccc(CNCCNCCO)s1
Mtb glucose medium: -0.8962%
Mtb cholesterol medium: -3.142%

SMILES: CCOC1CC(CN)(N2CCOCC2)C1 (stereo unspecified)
Mtb glucose medium: -1.448%

SMILES: CCC(Cn1ccnc1)NC(=O)c1cc(CO)ccn1 (stereo unspecified)
Mtb glucose medium: 14.08%

SMILES: COc1cccc(C(=O)N2C[C@H](C3CC3)[C@@H](N)C2)c1C
Mtb cholesterol medium: 19.18%

SMILES: CN(C)C(=O)Cc1ccc(NC(=O)C2CC2)cc1
Mtb glucose medium: 28.12%

SMILES: CNc1snc(C)c1C(=O)N1CCN(C2CC2)CC1
Mtb glucose medium: -0.6201%

SMILES: C[C@@H](O)CNCC1=Cc2ccccc2OC1
Mtb cholesterol medium: 5.82%

SMILES: OCCCC(Nc1ccccn1)c1ccccc1 (stereo unspecified)
Mtb glucose medium: 57.95%
Mtb cholesterol medium: 73.07%

SMILES: CCN(C(=O)CSc1ccncc1)[C@H]1COC[C@@H]1O
Mtb glucose medium: -5.523%

SMILES: CCN(C)C(C)C(=O)Nc1cccc(S(N)(=O)=O)c1 (stereo unspecified)
Mtb glucose medium: 8.314%

Repeated from the top, 3 entries:

{"smiles": "Fc1ccc2c(c1)CNCCO2", "Mtb glucose medium": 28.34, "Mtb cholesterol medium": 23.42}
{"smiles": "CN(Cc1ccc(F)c(F)c1)C(=O)C1CCOCC1", "Mtb glucose medium": 36.14, "Mtb cholesterol medium": 40.24}
{"smiles": "NC1Cc2ccccc21", "stereo": "stereo unspecified", "Mtb glucose medium": 10.71, "Mtb cholesterol medium": -2.726}